Pooled drug test results. Numbers come from NIAID ChemDB, via PubChem.

All rows: tests in culture; species: Candida albicans; measure: MIC80

A number after MIC or MFC names an inhibition level or a share of isolates.

{"smiles": "CN=[N+]([O-])CC[C@H](N)C(=O)O", "strain or isolate": "652 (5-flucytosine-resistant)", "result": "5.8 µg/mL"}
{"smiles": "NN(Cc1ccccc1)CC(O)(Cn1cncn1)c1ccc(F)cc1F", "strain or isolate": "ATCC 36082", "result": "1 µg/mL"}
{"smiles": "O=c1c2ccccc2oc2ccc(O)cc12", "strain or isolate": "ATCC 663.90", "result": "250 µg/mL"}
{"smiles": "ClCCl", "result": ">250 µg/mL"}
{"smiles": "CCCCCCCCNC1NCCC2c3ccccc3CCN12", "strain or isolate": "NFI0124", "result": "16 µg/mL"}
{"smiles": "C[C@H]1[C@H](O)[C@@H](C)/C=C/C=C/C=C/C=C/C=C/C=C/C=C/[C@H](O[C@@H]2O[C@H](C)[C@@H](O)[C@H](N)[C@@H]2O)C[C@@H]2O[C@](O)(C[C@@H](O)C[C@@H](O)CC[C@H](O)[C@@H](O)C[C@@H](O)CC(=O)O[C@H]1C)C[C@H](O)[C@H]2C(=O)O", "strain or isolate": "TIMM3164 (azole-resistant)", "result": "0.13 µg/mL"}
{"smiles": "COc1ccc2c(c1)CCN1C(NCCCCCC=C(C)C)NCCC21", "strain or isolate": "NFI0124", "result": "32 µg/mL"}
{"smiles": "Cc1nn([C@H](C)[C@](O)(Cn2cncn2)c2ccc(F)cc2F)c2cc(F)ccc12", "strain or isolate": "ATCC 36082", "result": "0.031 µg/mL"}
{"smiles": "CCOC(C)=O", "result": ">250 µg/mL"}
{"smiles": "CCCCN(Cc1cn(Cc2cccc(C#N)c2)nn1)CC(O)(Cn1cncn1)c1ccc(F)cc1F", "strain or isolate": "Y0109", "result": "16 µg/mL"}
{"smiles": "C[C@@H](c1ncncc1F)[C@](O)(Cn1cncn1)c1ccc(F)cc1F", "strain or isolate": "572-27", "result": "0.03 µg/mL"}
{"smiles": "O=C1S/C(=C\\c2ccccn2)C(=O)N1CC(O)(Cn1nccn1)c1ccc(F)cc1F", "strain or isolate": "CaCYP51", "result": "2.25 µg/mL"}
{"smiles": "O=c1c2cccc(O)c2oc2cccc(O)c12", "strain or isolate": "ATCC 663.90", "result": "62 µg/mL"}
{"smiles": "CCc1nn([C@H](C)[C@](O)(Cn2cncn2)c2ccc(F)cc2F)c2ccc(F)cc12", "strain or isolate": "ATCC 36082", "result": "≤0.015 µg/mL"}
{"smiles": "O=C1S/C(=C\\c2cccs2)C(=O)N1CC(O)(Cn1nccn1)c1ccc(F)cc1F", "strain or isolate": "CaCYP51", "result": "1.11 µg/mL"}
{"smiles": "C[C@@H](n1ncc2ccccc21)[C@](O)(Cn1cncn1)c1ccc(F)cc1F", "strain or isolate": "ATCC 36082", "result": "≤0.015 µg/mL"}
{"smiles": "COc1c(O)ccc2oc3ccccc3c(=O)c12", "strain or isolate": "ATCC 663.90", "result": "62 µg/mL"}
{"smiles": "N=C(N)c1ccc(Oc2ccc(-c3cc4ccc(C(=N)N)cc4[nH]3)cc2)cc1", "strain or isolate": "CAF2-1", "result": "1.25–2.5 µg/mL"}
{"smiles": "Cc1nn([C@H](C)[C@](O)(Cn2cncn2)c2ccc(F)cc2F)c2ccc(C(F)(F)F)cc12", "strain or isolate": "ATCC 36082", "result": "≤0.015 µg/mL"}
{"smiles": "OC(CN1CCN(c2ccc(OCc3ccncc3)cc2)CC1)(Cn1cncn1)c1ccc(F)cc1F", "strain or isolate": "SC5314", "result": "0.016 µg/mL"}
{"smiles": "O=C1S/C(=C\\c2ccncc2)C(=O)N1CC(O)(Cn1nccn1)c1ccc(F)cc1F", "strain or isolate": "CaCYP51", "result": "4.51 µg/mL"}
{"smiles": "COc1ccc2c(c1)CCN1C(NCCCCCCC(C)C)NCCC21", "strain or isolate": "NFI2103", "result": "4 µg/mL"}
{"smiles": "O=C1S/C(=C\\c2ccoc2)C(=O)N1CC(O)(Cn1nccn1)c1ccc(F)cc1F", "strain or isolate": "CaCYP51", "result": "0.15 µg/mL"}
{"smiles": "Cc1nn([C@H](C)[C@](O)(Cn2cncn2)c2ccc(F)cc2F)c2ccc([N+](=O)[O-])cc12", "strain or isolate": "ATCC 36082", "result": "0.015 µg/mL"}
{"smiles": "CC(c1ccc(Cl)s1)C(O)(Cn1ccnc1)c1ccc(Cl)cc1Cl", "result": "8 µg/mL"}
{"smiles": "CCCCN(Cc1cn(Cc2ccc(Cl)cc2)nn1)CC(O)(Cn1cncn1)c1ccc(F)cc1F", "strain or isolate": "SC5314", "result": "<0.125 µg/mL"}
{"smiles": "O=C1S/C(=C\\c2ccc(Cl)cc2)C(=O)N1CC(O)(Cn1nccn1)c1ccc(F)cc1F", "strain or isolate": "CaCYP51", "result": "4.19 µg/mL"}
{"smiles": "CCCCN(Cc1cn(Cc2ccc(Cl)cc2Cl)nn1)CC(O)(Cn1cncn1)c1ccc(F)cc1F", "strain or isolate": "SC5314", "result": "4 µg/mL"}
{"smiles": "CCCCCCCCNC1NCCC2c3ccc(OC)cc3CCN12", "strain or isolate": "NFI2103", "result": "32 µg/mL"}
{"smiles": "CCCCN(Cc1cn(Cc2ccc([N+](=O)[O-])cc2)nn1)CC(O)(Cn1cncn1)c1ccc(F)cc1F", "strain or isolate": "SC5314", "result": "2 µg/mL"}
{"smiles": "O=C1S/C(=C\\c2ccc(F)cc2)C(=O)N1CC(O)(Cn1nccn1)c1ccc(F)cc1F", "strain or isolate": "CaCYP51", "result": "1.09 µg/mL"}

3 of the rows above, restated:

{"smiles": "O=C1S/C(=C\\c2ccncc2)C(=O)N1CC(O)(Cn1nccn1)c1ccc(F)cc1F", "strain or isolate": "CaCYP51", "result": "4.51 µg/mL"}
{"smiles": "C[C@@H](c1ncncc1F)[C@](O)(Cn1cncn1)c1ccc(F)cc1F", "strain or isolate": "572-27", "result": "0.03 µg/mL"}
{"smiles": "CCCCN(Cc1cn(Cc2ccc(Cl)cc2)nn1)CC(O)(Cn1cncn1)c1ccc(F)cc1F", "strain or isolate": "SC5314", "result": "<0.125 µg/mL"}

Two numbers with a dash give a range or band. Lines come from different laboratories, so protocols vary.